Test results: patent publication US8979831B2 (priority 2008, dated 2015)

Assays:
[1] = Temperature profile of hydrolysis of ethyl chloroformate with NaOH in gel phantom; settings: hydrolysis in alkaline environment (NaOH)
ex vivo pig livers = assay: Temperature profile of hydrolysis of ethyl chloroformate by NaOH in ex vivo pig livers; settings: 10M in diglyme, one equivalent of NaOH, ex vivo pig liver
[2] = Temperature profile of hydrolysis of ethyl chloroformate in water in hydrophobic gel phantom; settings: for Average temperature: 200 microliters of 0.5M + 200 microliters of water, triplicate

CCOC(=O)Cl
Tmax trend with concentration [1]: Tmax increased with increasing concentrations | Change in temperature between Tmax and baseline (ex vivo pig livers): 28.4 °C | Average temperature ([2]; 0 sec): 23.40 °C | Average temperature ([2]; 15 sec): 31.93 °C | Average temperature ([2]; 30 sec): 30.60 °C | Average temperature ([2]; 45 sec): 29.63 °C | Average temperature ([2]; 60 sec): 28.80 °C | Average temperature ([2]; 75 sec): 28.37 °C | Average temperature ([2]; 90 sec): 27.87 °C | Average temperature ([2]; 105 sec): 27.33 °C | Average temperature ([2]; 120 sec): 27.17 °C | Average temperature ([2]; 135 sec): 26.87 °C | Average temperature ([2]; 150 sec): 26.63 °C | Average temperature ([2]; 165 sec): 26.37 °C | Average temperature ([2]; 180 sec): 26.13 °C | Average temperature ([2]; 195 sec): 25.93 °C | Average temperature ([2]; 210 sec): 25.73 °C | Average temperature ([2]; 225 sec): 25.53 °C | Average temperature ([2]; 240 sec): 25.50 °C | Average temperature ([2]; 255 sec): 25.40 °C | Average temperature ([2]; 270 sec): 25.27 °C | Average temperature ([2]; 285 sec): 25.13 °C | Average temperature ([2]; 300 sec): 25.00 °C | Tmax trend with concentration ([2]; hydrolyzed in water, solutions in diglyme): lower Tmax with increasing concentrations
